Pooled drug test results. Numbers come from NIAID ChemDB, via PubChem.

All rows: host cell toxicity; cell line: Huh7; endpoint: CC50

CCn is the concentration with n% toxicity to the cells.

compound,value
Nc1nc(C2CC2)c2nc(-c3ccc(N4CCCC4=O)cc3)ccc2n1,10–20 µM
CCC[C@H](NC(=O)[C@@H]1C2CCCC2CN1C(=O)[C@@H](NC(=O)[C@@H](NC(=O)c1cnccn1)C(C)(C)C)C(C)(C)C)C(=O)C(=O)NC1CC1,>100 µM
Nc1nc(C2CC2)c2nc(-c3ccc(F)cc3)ccc2n1,10–20 µM
CCOc1nc(N)nc2ccc(-c3ccc(C(=O)NC(C)C)cc3)nc12,>20 µM
C=C1C(=O)O[C@@H]2[C@H]1CC[C@H](COC(=O)CC(C)C)[C@]1(O)CCC(=O)[C@@]21C,>2 µM
Nc1nc(N2CCOCC2)c2nc(-c3ccc4c(c3)CC(=O)N4)cnc2n1,10–20 µM
C=C1C(=O)O[C@@H]2[C@H]1CC[C@H](COC(=O)C=C(C)C)[C@]1(O)CCC(=O)[C@@]21C,>2 µM
O=c1ccc2nnn3c2n1[C@@H]1O[C@H](C3)[C@@H](O)[C@H]1O,30.6 µM
COc1nc(N)nc2ccc(-c3ccc(C(=O)NC4CC4)cc3)nc12,10–20 µM
CCc1nc(N)nc2ccc(-c3ccc(N)cc3)nc12,<10 µM
CCCC(NC(=O)[C@@H]1C2CCCC2CN1C(=O)[C@@H](NC(=O)[C@@H](NC(=O)c1cnccn1)C1CCCCC1)C(C)(C)C)C(=O)C(=O)N[C@@H](C)CC,53.7 µM
CCCCCCCC(=O)CCCCCC/C=C/[C@H](C(=O)N[C@@H](Cc1ccc(-c2cccc(OC)n2)cc1)C(=O)O)[C@@](O)(CC(=O)O)C(=O)O,>1 µM
N#Cc1c(Nc2ccc(Br)c(F)c2)s[nH]c1=O,>50 µM
CCC[C@H](NC(=O)[C@@H]1C2CCCC2CN1C(=O)[C@@H](NC(=O)[C@@H](NC(=O)c1cnccn1)C1CCCCC1)C(C)(C)C)C(=O)C(=O)N[C@@H](C)c1ccncc1,73.6 µM
COc1ccc(-c2ccc3nc(N)nc(Nc4cccc(Br)c4)c3c2)cc1OC,>20 µM
COc1ccc(N2CCN(CN3C(=O)/C(=N\c4ncc(Cc5cc(OC)c(OC)c(OC)c5)c(N)n4)c4cc(Br)ccc43)CC2)cc1,>50 µg/mL
CC(C)(CN1CCCC1)NC(=O)c1ccc(-c2ccc3nc(N)nc(O[C@H]4CCOC4)c3n2)cc1,>20 µM
COc1ccccc1N1CCN(CN2C(=O)/C(=N\c3ncc(Cc4cc(OC)c(OC)c(OC)c4)c(N)n3)c3cc(Br)ccc32)CC1,>50 µg/mL
Cc1ccc(Oc2ccc(C[C@H](NC(=O)[C@@H](/C=C/CCCCCCC(=O)CCC3CCCCC3)[C@@](O)(CC(=O)O)C(=O)O)C(=O)O)cc2)cc1,>1 µM
CCc1nc(N)nc2ccc(-c3ccc(N4CCCC4=O)cc3)nc12,>20 µM
CC1CCC(C(=O)N(c2cc(-c3ccccc3)sc2C(=O)O)C(C)C)CC1,77 µM
CC(C)Cc1nc(N)nc2ccc(-c3ccc(F)cc3)nc12,>20 µM
O=C(CCC1CCCC1)N/C(=C\c1ccc(Oc2ccccc2I)cc1)C(=O)O,>50 µM
CCN(C(=O)c1ccc(C)cc1)c1cc(-c2ccccc2)sc1C(=O)O,200 µM
CCCC(NC(=O)[C@@H]1C[C@@H](OC(=O)N2CCc3ccccc3C2)CN1C(=O)[C@H](NC(=O)[C@H](NC(=O)c1cnccn1)C(C)C)C(C)C)C(=O)C(=O)NCCc1ccccc1,20 µM
COc1cc(Cc2cnc(/N=C3\C(=O)N(CN4CCN(Cc5ccccc5)CC4)c4ccc(Br)cc43)nc2N)cc(OC)c1OC,>50 µg/mL
CCCC1CCC(c2ccc(Nc3s[nH]c(=O)c3C#N)cc2)CC1,>50 µM
C[C@@]1(O)[C@H](O)[C@@H](CO)O[C@H]1n1cnc2c(N)ncnc21,82 µM
CCCCCCCC(=O)CCCCCC/C=C/[C@H](C(=O)N[C@@H](Cc1ccc(-c2cccc(Cl)c2)cc1)C(=O)O)[C@@](O)(CC(=O)O)C(=O)O,>1 µM
COc1cc(Cc2cnc(/N=C3\C(=O)N(CN4CCN(c5cccc(C(F)(F)F)c5)CC4)c4ccc(F)cc43)nc2N)cc(OC)c1OC,<50 µg/mL
COc1cc(Cc2cnc(/N=C3\C(=O)N(CN4CCN(c5cc6c(cc5F)c(=O)c(C(=O)O)cn6C5CC5)CC4)c4ccc(Br)cc43)nc2N)cc(OC)c1OC,>50 µg/mL
CC(C)c1nc(N)nc2ccc(-c3ccc(F)cc3)nc12,>20 µM
CCCCNc1nc(=O)n2c3c1nnn3C[C@H]1OC2[C@H](O)[C@@H]1O,>100 µM
Nc1nc(O[C@H]2CCOC2)c2nc(-c3ccc(C(=O)NCCN4CCCC4)cc3)ccc2n1,10–20 µM
COc1cccc(N2CCN(CN3C(=O)/C(=N\c4ncc(Cc5cc(OC)c(OC)c(OC)c5)c(N)n4)c4cc(Br)ccc43)CC2)c1,>50 µg/mL
Nc1ncnc2c1c(-c1ccc(-c3cccc(-c4ccccn4)n3)cc1)cn2[C@H]1C[C@H](O)[C@@H](CO)O1,>100 µM
CC(C)(C)OC(=O)CCNC(=O)Nc1nc2c(s1)-c1nc(-c3ccccc3Cl)ncc1CC2,10 µM
CCC[C@H](NC(=O)[C@@H]1[C@H]2CCC[C@H]2CN1C(=O)[C@@H](NC(=O)[C@@H](NC(=O)c1cnccn1)C1CCCCC1)C(C)(C)C)C(=O)C(=O)NC1CC1,>100 µM
CCCNc1ncnc2ccc(-c3ccc(F)cc3)cc12,>20 µM
COc1cccc(N2CCN(CN3C(=O)/C(=N\c4ncc(Cc5cc(OC)c(OC)c(OC)c5)c(N)n4)c4cc(F)ccc43)CC2)c1,>50 µg/mL
CC(=O)NC1=NN(CCO)c2ncnc3c2c1cn3C1(C)O[C@H](CO)[C@@H](O)[C@H]1O,200 µM
CC(C)Oc1nc(N)nc2ccc(-c3ccc(NC(=O)C(C)C)cc3)nc12,>20 µM
Nc1nc(Cl)nc2c1ncn2[C@H]1O[C@H](CO)[C@@H](F)[C@@H]1F,>10 µM
Nc1nc(O[C@@H]2CCOC2)c2nc(-c3ccc(N4CCCC4=O)cc3)ccc2n1,>20 µM
O=c1[nH]c(=S)c2nnn3c2n1C1O[C@H](C3)[C@@H](O)[C@H]1O,32 µM
CCCC(NC(=O)[C@@H]1C2CCCC2CN1C(=O)[C@@H](NC(=O)[C@@H](NC(=O)c1cnccn1)[C@@H](C)CC)C(C)(C)C)C(=O)C(=O)NC1CC1,>100 µM
CCOc1nc(N)nc2ccc(-c3ccc(C(=O)NC(C)(C)C)cc3)nc12,>20 µM
COc1cc(Cc2cnc(/N=C3\C(=O)N(CN4CCN(c5ccc(Cl)cc5)CC4)c4ccc(F)cc43)nc2N)cc(OC)c1OC,<50 µg/mL
Fc1ccc(-c2ccc3ncnc(N4CCOCC4)c3c2)cc1,>20 µM
CCCCCCCC(=O)CCCCCC/C=C/[C@H](C(=O)N[C@@H](Cc1ccc(CNC(=O)OC2c3ccccc3-c3ccccc32)cc1)C(=O)O)[C@@](O)(CC(=O)O)C(=O)O,>1 µM
COc1cc(Cc2cnc(/N=C3\C(=O)N(CN4CCN(c5ccccc5)CC4)c4ccc(Br)cc43)nc2N)cc(OC)c1OC,>50 µg/mL
COc1cc(Cc2cnc(/N=C3\C(=O)N(CN4CCN(c5ccccc5)CC4)c4ccc(F)cc43)nc2N)cc(OC)c1OC,<50 µg/mL
N#CCn1c(=O)c2nnn3c2n(c1=O)C1O[C@H](C3)[C@@H](O)[C@H]1O,>100 µM
CCOc1nc(N)nc2ccc(-c3cccc(NS(=O)(=O)CC(F)(F)F)c3)nc12,>20 µM
COc1cc(Cc2cnc(/N=C3\C(=O)N(CN4CCN(c5c(F)cc6c(=O)c(C(=O)O)cn(C7CC7)c6c5OC)CC4C)c4ccc(F)cc43)nc2N)cc(OC)c1OC,<50 µg/mL
CCCCN1N=C(N)c2cn(C3(C)O[C@H](CO)[C@@H](O)[C@H]3O)c3ncnc1c23,>300 µM
N#Cc1c(Nc2ccccc2)s[nH]c1=O,>50 µM
CCN(CC)CN1C(=O)/C(=N\c2ncc(Cc3cc(OC)c(OC)c(OC)c3)c(N)n2)c2cc(Br)ccc21,>50 µg/mL
CC(=O)Nc1ccc(-c2ccc3nc(N)nc(N4CCN(C)CC4)c3c2)cc1,10–20 µM
COc1cc(Cc2cnc(/N=C3\C(=O)N(CN4CCN(c5c(F)cc6c(=O)c(C(=O)O)cn(C7CC7)c6c5OC)CC4C)c4ccc(Br)cc43)nc2N)cc(OC)c1OC,>50 µg/mL
Nc1ncnc2c1c(-c1ccc(-c3cc(-c4ccccn4)nc(-c4ccccn4)c3)cc1)cn2[C@H]1C[C@H](O)[C@@H](CO)O1,0.66 µM
C[C@@]1(O)[C@H](O)[C@@H](CO)O[C@H]1n1ccc(N)nc1=O,>50 µg/mL
CCOc1nc(N)nc2ncc(-c3ccc(N)cc3)nc12,>20 µM
COCCCOc1nc(N)nc2c1ncn2[C@@H]1O[C@H](COP(=O)(N[C@@H](C)C(=O)OCC(C)(C)C)Oc2cccc3ccccc23)[C@@H](O)[C@@]1(C)O,0.12 µM
Nc1nc(N2CCOCC2)c2nc(-c3cccc(Cl)c3)cnc2n1,>20 µM
N#Cc1c(Nc2ccc(C(F)(F)F)cc2)s[nH]c1=O,>50 µM
Nc1nc(Nc2ccccc2)c2cc(-c3ccc(F)cc3)ccc2n1,<10 µM

A second listing of 8 rows from above:

| compound | value |
|---|---|
| Nc1nc(O[C@H]2CCOC2)c2nc(-c3ccc(C(=O)NCCN4CCCC4)cc3)ccc2n1 | 10–20 µM |
| C[C@@]1(O)[C@H](O)[C@@H](CO)O[C@H]1n1ccc(N)nc1=O | >50 µg/mL |
| Nc1ncnc2c1c(-c1ccc(-c3cccc(-c4ccccn4)n3)cc1)cn2[C@H]1C[C@H](O)[C@@H](CO)O1 | >100 µM |
| N#Cc1c(Nc2ccc(Br)c(F)c2)s[nH]c1=O | >50 µM |
| CCCCCCCC(=O)CCCCCC/C=C/[C@H](C(=O)N[C@@H](Cc1ccc(-c2cccc(Cl)c2)cc1)C(=O)O)[C@@](O)(CC(=O)O)C(=O)O | >1 µM |
| CCCC1CCC(c2ccc(Nc3s[nH]c(=O)c3C#N)cc2)CC1 | >50 µM |
| Nc1nc(Nc2ccccc2)c2cc(-c3ccc(F)cc3)ccc2n1 | <10 µM |
| CCN(CC)CN1C(=O)/C(=N\c2ncc(Cc3cc(OC)c(OC)c(OC)c3)c(N)n2)c2cc(Br)ccc21 | >50 µg/mL |

a–b is a range or a potency band. Rows are shuffled and stem from different studies.